From publication PMC4227228, “Preparation and Evaluation of Human-Murine Chimeric Antibody against Protective Antigen of Bacillus anthracis” (International Journal of Molecular Sciences, 2014)

Target: Anthrax protective antigen (PA83) (Bacillus anthracis, strain , UniProt P13423)
Test: ELISA

B1: human/murine chimeric PA6-Fab (Fab, V domains shown)
VH: DVQLQESGPGLVKPSQSLSLTCTVTGYSITSDYAWNWIRQFPGNKLEWMGYISYSGSTSYNPSLKSRISIYRDTSKNQFFLQLNSVTIEDTATYYCARRDYGYLTWFAYWGQGTLVTVSA
VL: DILLTQSPAIMSASPGEKVTMTCSASSSISYMHWYQQKPGTSPKRWIYDTSKLASGVPARFSGSGSGTSYSLTISSMEAEDAATYYCHQRSSWTFGGGTKLEMK
notes: also called chimeric Fab antibody
For B1, the Ka was 5.07e-09 M⁻¹ and the Kd was 1.76 nM.
